Compound potency records, mixed from different reports. Data source: NIAID ChemDB in PubChem.

Shared fields: whole-cell or culture tests; organism: Mycobacterium tuberculosis

Inhibition is in % at the dose shown (toxicity tests: loss of growth or viability). MIC bound comes from a single tested concentration. Lines come from different laboratories, so protocols vary. MIC50, MIC90 and the like: level of inhibition, or share of isolates inhibited. ECn: concentration that inhibits the pathogen or its effect by n%. Two numbers with a dash give a range or band.

CC(=O)Nc1ccc(S(=O)(=O)/C(=C/c2ccc(Cl)o2)c2ccc([N+](=O)[O-])o2)cc1 ; measure: MIC bound ; strain: H37Rv ; method: BACTEC ; value: >12.5 µg/mL
CCCCCCOc1ccc(NC(=O)OCCN2CCCCC2)cc1 ; measure: MIC ; strain: My 331/88 ; value: 16 µM
CCOC(=O)c1[nH]c2ccccc2c1C(=O)CC(NC(=O)C(F)(F)F)C(=O)OC ; measure: inhibition ; dose: 12.5 µg/mL ; strain: H37Rv ; method: BACTEC ; value: 0%
CCOC(=O)c1c(NC(=O)c2c(F)c(F)c(F)c(F)c2F)sc2c1CCNC2=O ; measure: MIC ; strain: H37Rv ; method: turbidity ; changes: rpoB S522L mutant ; value: 1.5 µM
CO[C@H]1/C=C/O[C@@]2(C)Oc3c(C)c(O)c4c(O)c(c(C=NN5CCCCC5)c(O)c4c3C2=O)NC(=O)/C(C)=C\C=C\[C@H](C)[C@H](O)[C@@H](C)[C@@H](O)[C@@H](C)[C@H](OC(C)=O)[C@@H]1C ; measure: MIC ; strain: H37Rv ; value: 0.05 µg/mL
C=CC(C)(C)c1c2c(c(OC)c3ccc(=O)oc13)C(=O)CC(C)(C)O2 ; measure: MIC ; value: 50 µg/mL
CCCCCCCCNCc1ccc(O)c(OC)c1 ; measure: MIC90 ; strain: H37Ra ; method: resazurin ; value: 200 µM
CC1=C(C(=O)Nc2ccc(F)c(Cl)c2)C(c2ccccc2S(=O)(=O)[O-])C(C(=O)Nc2ccc(F)c(Cl)c2)=C(C)N1 ; measure: MIC ; strain: H37Rv ; value: >6.25 µg/mL
COc1ccc2ncc(C(=O)O)c(Nc3ccc(OCCCN4CCOCC4)cc3)c2c1 ; measure: MIC ; strain: H37Rv ; method: resazurin ; value: 30.68 µM
CC[C@@H](C(=O)[C@@H](C)[C@@H](O)[C@H](C)[C@@H]1O[C@@H]([C@@H](CC)C(=O)O)CC[C@@H]1C)[C@H]1O[C@@]2(C=C[C@@H](O)[C@@]3(CC[C@@](C)([C@H]4CC[C@](O)(CC)[C@H](C)O4)O3)O2)[C@H](C)C[C@@H]1C ; measure: MIC ; strain: H37Rv ; method: resazurin ; value: 10 µg/mL
CCN1CCc2c(sc(NC(=O)c3c(F)c(F)c(F)c(F)c3F)c2C#N)C1 ; measure: MIC ; strain: ATCC35838 ; method: turbidity ; value: 13 µM
CCCOc1ccccc1NC(=O)OCCN(C)C ; measure: MIC ; strain: My 331/88 ; value: 500 µM
CC(C)(C)c1cc(C(C)(C)C)c2oc(-c3ccc(Br)cc3)nc2c1 ; measure: MIC ; strain: H37Rv ; method: BACTEC ; value: 6.25 µg/mL
O=Cc1cc2c(cc1O)[nH]c1ccccc12 ; measure: MIC ; value: 200 µg/mL
CC(C)(C)OC(=O)N1CCc2c(sc(N)c2C(=O)O)C1 ; measure: MIC ; strain: H37Rv ; method: resazurin ; value: >100 µg/mL
COc1ccc(CC(=S)N2CCOCC2)cc1Oc1ccc(CC(=S)N2CCOCC2)cc1 ; measure: MIC ; strain: H37Rv ; value: 7.8–15.6 µg/mL
Nc1ccc(S(=O)(=O)c2ccc(N)cc2)cc1 ; measure: EC50 ; value: >16 µg/mL
Nc1nc2c(c(-c3ccc(Cl)cc3)n1)CN(CCC(=O)O)C2=O ; measure: inhibition ; dose: 12.8 µg/mL ; strain: H37Rv ; method: BACTEC ; value: 24%
COC(=O)c1ccc(Oc2cc(C)cc(OC)c2OC)cc1 ; measure: MIC ; strain: H37Rv ; value: 125–500 µg/mL
CC(C)(C)c1cc(C(C)(C)C)c2oc(-c3ccncc3)nc2c1 ; measure: MIC ; strain: H37Rv ; method: BACTEC ; value: 6.25 µg/mL
COCOc1ccc(CCC(=O)CCCCc2ccc(OC)c(O)c2)cc1Br ; measure: MIC ; strain: H37Rv ; method: broth dilution ; value: >200 µg/mL
OCC1(CO)CSSC1 ; measure: inhibition ; dose: 12.5 µg/mL ; strain: H37Rv ; method: BACTEC ; value: 2%
COc1ccc2cc1Oc1cc(ccc1OC)CCC(O)CCCC2 ; measure: MIC ; strain: H37Rv ; method: broth dilution ; value: >200 µg/mL
CC1=C(C(=O)Nc2ccccc2Cl)C(c2ccc(Cl)cc2Cl)C(C(=O)Nc2ccccc2Cl)=C(C)N1 ; measure: MIC ; strain: H37Rv ; value: >12.5 µg/mL
CO/N=C1/CCCCc2ccc(OC)c(c2)Oc2cc(ccc2OC)CC1 ; measure: MIC ; strain: H37Rv ; method: broth dilution ; value: >200 µg/mL
NNC(=O)c1ccncc1 ; measure: MIC90 ; strain: H37Rv ; value: 0.1 µg/mL
CN(C)CNC(=S)S ; measure: MIC ; strain: TAC-R ; value: 1.6 µg/mL
CO[C@H]1/C=C/O[C@@]2(C)Oc3c(C)c(O)c4c(O)c(c(/C=N/N(C)C)c(O)c4c3C2=O)NC(=O)/C(C)=C\C=C\[C@H](C)[C@H](O)[C@@H](C)[C@@H](O)[C@@H](C)[C@H](OC(C)=O)[C@@H]1C ; measure: MIC ; strain: H37Rv ; value: 0.05 µg/mL
C[C@@H]1C[C@H]2C[C@]1(OC(=O)CC(=O)O[C@]13CCC4[C@](CCC5[C@@]4(C)CCC[C@@]5(C)C(=O)O)(C[C@@H]1C)C3)CC1C2CCC2[C@]1(C)CCC[C@]2(C)C(=O)O ; measure: MIC ; strain: H37Rv ; method: BACTEC ; value: 5 µg/mL
CCNC(=O)c1c(NC(=O)c2c(F)c(F)c(F)c(F)c2F)sc2c1CCN(CC)C2 ; measure: EC50 ; strain: ATCC 35822 ; method: turbidity ; value: 3.5 µM
COc1cc(C=O)cc(Oc2ccc(C=O)c([N+](=O)[O-])c2)c1O ; measure: MIC ; strain: H37Rv ; value: 250–500 µg/mL
CCOC(=O)/C=C1/CCC(C)n2c1nccc2=O ; measure: inhibition ; dose: 6.25 µg/mL ; strain: H37Rv ; method: resazurin ; value: 0%
COC(=O)Cc1cc(N)c(Oc2cc(C(C(C)=O)C(C)=O)cc(OC)c2OC(C)=O)c(N)c1 ; measure: MIC ; strain: H37Rv ; value: 1000 µg/mL
Oc1cc(Cl)ccc1Oc1ccc(Cl)cc1Cl ; measure: EC50 ; strain: H37Rv ; method: fluorescence ; value: 0.6 µM
COc1cc(CCN)cc(Oc2c(Cl)cc(CC(=O)O)cc2Cl)c1O ; measure: MIC ; strain: H37Rv ; value: 500 µg/mL
O=C1c2cccnc2C(=O)N1CCO ; measure: MIC ; strain: H37Rv ; method: BACTEC ; value: ≥12.8 µg/mL
COc1cccc(C2C(C(=O)Nc3ccc(F)c(Cl)c3)=C(C)NC(C)=C2C(=O)Nc2ccc(F)c(Cl)c2)c1 ; measure: MIC ; strain: H37Rv ; value: >6.25 µg/mL
CCCCCCOc1ccccc1NC(=O)OCCN1CCCCC1 ; measure: MIC ; strain: My 331/88 ; value: 32 µM
CO[C@H]1/C=C/O[C@@]2(C)Oc3c(C)c(O)c4c(O)c(c(/C=N/N5CCCC(O)C5)c(O)c4c3C2=O)NC(=O)/C(C)=C\C=C\[C@H](C)[C@H](O)[C@@H](C)[C@@H](O)[C@@H](C)[C@H](OC(C)=O)[C@@H]1C ; measure: MIC ; strain: H37Rv ; value: 0.5 µg/mL
N#Cc1c(NC(=O)c2c(F)c(F)c(F)c(F)c2F)sc2c1CCOC2 ; measure: MIC ; strain: ATCC 35822 ; method: turbidity ; value: 12 µM
C=CC(C)(C)c1c2c(c(O)c3ccc(=O)oc13)C(=O)CC(C)(C)O2 ; measure: MIC ; value: 200 µg/mL
CN1C(=O)CCCCCCCCCCSc2ccccc21 ; measure: inhibition ; dose: 12.5 µg/mL ; strain: H37Rv ; method: BACTEC ; value: 23%
O=C1CCCCc2ccc(c(O)c2)Oc2cc(ccc2O)CC1 ; measure: MIC ; strain: H37Rv ; method: broth dilution ; value: 200 µg/mL
OCCNC(=S)C(=S)NCCO ; measure: inhibition ; dose: 6.25 µg/mL ; strain: H37Rv ; method: resazurin ; value: -11%
COc1ccc(CCCCC(=O)/C=C/c2ccc(OC)c(Br)c2)cc1O ; measure: MIC ; strain: H37Rv ; method: broth dilution ; value: >200 µg/mL
CO[C@H]1/C=C/O[C@@]2(C)Oc3c(C)c(O)c4c(O)c(c(/C=N/N5CCCC5)c(O)c4c3C2=O)NC(=O)/C(C)=C\C=C\[C@H](C)[C@H](O)[C@@H](C)[C@@H](O)[C@@H](C)[C@H](OC(C)=O)[C@@H]1C ; measure: MIC ; strain: H37Rv ; value: 0.2 µg/mL
CCC(Sc1ncnc2c1cnn2COCCO)C(N)=O ; measure: MIC ; strain: H37Rv ; value: >6.25 µg/mL
CC(C)(CO)NCC(C)(C)[N+](=O)[O-] ; measure: inhibition ; dose: 12.8 µg/mL ; strain: H37Rv ; method: BACTEC ; value: 15%
COc1ccc(C2C(C(=O)Nc3cccc([N+](=O)[O-])c3)=C(C)NC(C)=C2C(=O)Nc2cccc([N+](=O)[O-])c2)cc1OC ; measure: MIC ; strain: H37Rv ; value: >6.25 µg/mL
O=c1c2ccccc2c2ccccc2n1C(c1ccccc1)c1ccccc1 ; measure: inhibition ; dose: 12.5 µg/mL ; strain: H37Rv ; method: BACTEC ; value: -48%
COc1ccc2cc1Oc1cc(ccc1OCc1ccccc1)CCC(=O)CCCC2 ; measure: MIC ; strain: H37Rv ; method: broth dilution ; value: >200 µg/mL
CN(C)c1ccc2cc3c(cc2c1)Oc1ccccc1N3.CN(C)c1ccc2cc3c(cc2c1)Oc1ccccc1N3.[Cl][Zn][Cl] ; measure: inhibition ; dose: 12.5 µg/mL ; strain: H37Rv ; method: BACTEC ; value: 71%
O=[N+]([O-])c1cn2c(n1)OC[C@@H](OCc1ccc(OC(F)(F)F)cc1)C2 ; measure: MIC ; strain: H37Rv ; value: 0.125 µg/mL
COC(=O)Cc1ccc(Oc2cc(/C=N/Nc3ccc([N+](=O)[O-])cc3[N+](=O)[O-])cc(OC)c2OC(C)=O)cc1 ; measure: MIC ; strain: H37Rv ; value: 250–1000 µg/mL
c1ccc(/C(=N/Nc2ccccn2)c2ccccn2)cc1 ; measure: MIC bound ; strain: H37Rv ; method: BACTEC ; value: >12.5 µg/mL
COc1cc(/C=C/[N+](=O)[O-])cc(Oc2c(I)cc(CC(=O)O)cc2I)c1OC ; measure: MIC ; strain: H37Rv ; value: 1000 µg/mL
COc1cc(CNc2ccccc2)ccc1O ; measure: inhibition ; dose: 200 µM ; strain: H37Ra ; method: resazurin ; value: <50%
CSC(=S)NN=C1CCCC1 ; measure: MIC ; strain: H37Rv ; method: BACTEC ; value: 0.78 µg/mL
CN(C)c1ccc(-c2nc3cc(C(C)(C)C)cc(C(C)(C)C)c3o2)cc1 ; measure: inhibition ; dose: 6.25 µg/mL ; strain: H37Rv ; method: BACTEC ; value: 54%
O=C(c1ccccc1)c1c(CO[N+](=O)[O-])n([O-])c2ccccc2[n+]1=O ; measure: inhibition ; dose: 12.5 µg/mL ; strain: H37Rv ; method: BACTEC ; value: 95%
CCOC(=O)c1c(NC(C)=O)sc2c1CCCC2 ; measure: MIC ; strain: H37Rv ; method: resazurin ; value: >100 µg/mL
COC(=O)C1=C(C)N(c2ccc(Cl)cc2)C(C)=C(C(=O)OC)C1c1ccc(SC)cc1 ; measure: MIC ; strain: H37Rv ; value: >6.25 µg/mL
O=C(N/N=C/c1ccc(Cl)c(Cl)c1)C(=O)N/N=C/c1ccc(Cl)c(Cl)c1 ; measure: MIC bound ; strain: H37Rv ; method: BACTEC ; value: >12.5 µg/mL
CCCCCCCCCCCCCCc1ccc(NCc2ccc(O)c(OC)c2)cc1 ; measure: inhibition ; dose: 200 µM ; strain: H37Ra ; method: resazurin ; value: <50%
CC(C)(C)c1cc(C(C)(C)C)c2oc(-c3ccn[nH]3)nc2c1 ; measure: MIC ; strain: H37Rv ; method: BACTEC ; value: >6.25 µg/mL
COc1cc(CNc2ccccc2B2OC(C)(C)C(C)(C)O2)ccc1O ; measure: EC50 ; strain: H37Ra ; method: resazurin ; value: 46.2 µM
CCOC(=O)c1c(NC(=O)c2c(F)c(F)c(F)c(F)c2F)sc2c1CCOC2 ; measure: EC50 ; strain: ATCC35838 ; method: turbidity ; value: 0.085 µM
CC1=C(C(=O)Nc2ccccc2C)C(c2cccc(Cl)c2)C(C(=O)Nc2ccccc2C)=C(C)N1 ; measure: MIC ; strain: H37Rv ; value: >6.25 µg/mL
COc1ccc2cc1Oc1cc(ccc1OC)CCC(NCc1ccccc1)CCCC2 ; measure: MIC ; strain: H37Rv ; method: broth dilution ; value: 25 µg/mL
CC(C)(C)c1cc(C(C)(C)C)c2oc(-c3ccccc3Br)nc2c1 ; measure: inhibition ; dose: 6.25 µg/mL ; strain: H37Rv ; method: BACTEC ; value: 99%
COc1ccc2c(c1)C(=O)/C(=C/c1ccc([N+](=O)[O-])o1)CO2 ; measure: MIC bound ; strain: H37Rv ; method: BACTEC ; value: >12.5 µg/mL
CCC(Sc1ncnc2c1cnn2CCCCO)C(N)=O ; measure: MIC ; strain: H37Rv ; value: >6.25 µg/mL
COc1ccc(/C=C(/Cl)c2ccc(OC)c(OC)c2)cc1OC ; measure: MIC bound ; strain: H37Rv ; method: BACTEC ; value: >12.5 µg/mL
Oc1cccc2c1[C@H](O)[C@H]1O[C@H]1C21Oc2cccc3cccc(c23)O1 ; measure: MIC ; value: >200 µg/mL
CCCOc1cccc(NC(=O)OCCN(C)C)c1 ; measure: MIC ; strain: My 331/88 ; value: 500 µM
Cn1c2cc(Cl)c(Cl)cc2nc2cc3c(cc21)c(Cl)c(=O)c1ccccc13 ; measure: inhibition ; dose: 12.5 µg/mL ; strain: H37Rv ; method: BACTEC ; value: 33%
NC(=O)CSc1ncnc2c1cnn2COCCO ; measure: MIC ; strain: H37Rv ; value: >6.25 µg/mL
C=CC(C)(C)c1c2c(c(OC)c3ccc(=O)oc13)C=CC(C)(C)O2 ; measure: MIC ; value: 50 µg/mL
COc1cc(CCCCC(=O)/C=C/c2ccc(OC)c(Br)c2)ccc1O ; measure: MIC ; strain: H37Rv ; method: broth dilution ; value: >200 µg/mL
C=C1C(=O)O[C@H]2C[C@@H]1[C@@H](OC(C)=O)C/C(C)=C\CC/C(C)=C\CC[C@@]2(C)O ; measure: inhibition ; dose: 128 µg/mL ; strain: H37Rv ; method: BACTEC ; value: 85%
O=C1C[C@H](O)C2(Oc3cccc4cccc(c34)O2)c2cccc(O)c21 ; measure: MIC ; value: 6.25 µg/mL
CCc1ccc(-c2nc3cc(C(C)(C)C)cc(C(C)(C)C)c3o2)o1 ; measure: inhibition ; dose: 6.25 µg/mL ; strain: H37Rv ; method: BACTEC ; value: <90%
COc1cc(/C=C/[N+](=O)[O-])cc(Br)c1O ; measure: MIC ; strain: H37Rv ; value: 125 µg/mL